Source: patent US7235536B2, “Cellulose sulfate and other sulfated polysaccharides to prevent and treat papilloma virus infection and other infections” (Rush Presbyterian-St. Luke's Medical Center, priority 2000, dated 2007)

Tests used:
HPV-11 = experiment: RT-PCR ELISA for transient infection of human A431 cells, HPV-11; type: cell-based, human papilloma virus; settings: 1000 μg/ml; no virus
Protocol: Cellulose sulfate and dextran sulfate were each prepared as a 2 mg/ml solution in 0.9% NaCl and tested for microbicidal activity using the in vitro HPV transient infection assay originally described by Smith and colleagues (Smith, L. H., C. Foster, M. E. Hitchcock, and R. Isseroff. 1993. In vitro HPV-11 infection of human foreskin. J. Invest. Dermatol. 101:292-295) with some modifications (Ludmerer, S. W., W. L. McClements, X. M. Wang, J. C. Ling, K. U. Jansen, and N. D. Christensen. 2000. HPV11 mutant virus-like parties elicit immune responses that neutralize virus and delineate a novel neutralizing domain. Virology 266:237-245). An ELISA-based read-out of Optical Density (OD) values using alkaline phosphatase cleavage of the substrate p-nitrophenyl phosphate was also used to measure HPV infection as described below.
A modification of the RT-PCR assay that incorporates an ELISA-based read-out (Boehringer-Mannheim) was also included to assess microbicidal activity. Replicate cell cultures of A431 cells were infected with an aliquot of infectious HPV virions as described above. After 4 days of culture, cells were harvested and RNA extracted. […] Biotinylated products were detected in ELISA with plates coated with streptavidin (to capture the biotinylated target PCR product) then anti-DIG antibody and substrate. […]

β-actin transcripts = experiment: RT-PCR ELISA, β-actin probe control; type: cell-based, human

Substance | Mean (SD) of O.D. reading for RT-PCR ELISA, HPV-11 probe (HPV-11) | Mean (SD) of O.D. reading for RT-PCR ELISA, β-actin probe (β-actin transcripts; 10 μg/ml, with virus (HPV-11)) | Mean (SD) of O.D. reading for RT-PCR ELISA, β-actin probe (β-actin transcripts; 100 μg/ml, with virus (HPV-11)) | Mean (SD) of O.D. reading for RT-PCR ELISA, β-actin probe (β-actin transcripts; 1000 μg/ml, no virus) | Mean (SD) of O.D. reading for RT-PCR ELISA, β-actin probe (β-actin transcripts; 1000 μg/ml, with virus (HPV-11))
Dextran sulfate | 0.000 (0.000) O.D. | 1.636 (0.105) O.D. | 1.583 (0.022) O.D. | 1.470 (0.001) O.D. | –
sodium cellulose sulfate | 0.028 (0.004) O.D. | 1.576 (0.021) O.D. | 1.532 (0.025) O.D. | 1.427 (0.013) O.D. | 1.518 (0.020) O.D.
